Measured values from several laboratories, pooled; numbers as filed in NIAID ChemDB.

Common to all: tests in culture; organism: Candida glabrata

Rows are shuffled and stem from different studies. Zones are inhibition diameters on agar. An empty or dashed field is not shown. A number after MIC or MFC names an inhibition level or a share of isolates. ECn: concentration that inhibits the pathogen or its effect by n%.

smiles | strain | read-out | conditions | tested at | method | result
NC(=O)N/N=C/c1ccsc1.NC(=O)N/N=C/c1ccsc1.[Br][Ni][Br] | LMA 1085 | MIC80 |  |  | turbidity / absorbance | 125 µg/mL
c1ccc(C(c2ccccc2)n2cnc3ccccc32)cc1 |  | MFC |  |  | broth dilution | >256 µg/mL
O=[N+]([O-])c1ccc(/C=N\O)cc1 |  | MIC100 |  |  |  | 3010 µM
CC(C)CC(O)C(=O)O | G 212 | EC50 |  |  | broth dilution | 18000 µg/mL
O=C(c1ccccc1)C(c1ccccc1)n1cncn1 |  | MIC90 |  |  | agar | 16 µg/mL
O/N=C\c1ccc(F)cc1 |  | MIC100 |  |  |  | 7200 µM
Cc1ccc(-c2c3c(N)c4c(nc3nc3c2c(C)nn3-c2ccccc2)CCCCC4)cc1 | CCC 115 | MIC100 |  |  | broth dilution / absorbance | >250 µg/mL
Clc1ccc(C(c2ccccc2)N2CCN(CCn3ccnc3)CC2)cc1 |  | MIC90 |  |  | agar | >256 µg/mL
CC1C(=O)N(CCc2ccccc2)C(=O)C1C | CCC 115-2000 | MIC |  |  | broth dilution / turbidity | 125 µg/mL
O=C1S/C(=C\c2ccc3ccccc3n2)C(=O)N1CC(O)(Cn1nccn1)c1ccc(F)cc1F |  | MIC80 |  |  |  | 0.51 µg/mL
C=CCc1ccc(OC)c(OC)c1 | 2621 | MIC90 |  |  | turbidity | 350 µg/mL
c1ccc(C(c2ccccc2)n2ccnc2)cc1 |  | MIC90 |  |  | agar | 0.5 µg/mL
Nc1ncccc1-c1cc(Cc2ccc(COc3ccccn3)cc2)no1 |  | MIC50 |  |  | broth dilution | 0.03 µg/mL
C[C@@H](c1ncncc1F)[C@](O)(Cn1cncn1)c1ccc(F)cc1F |  | MIC50 |  |  | broth dilution | 0.13 µg/mL
C[C@H]1[C@H](O)[C@@H](C)/C=C/C=C/C=C/C=C/C=C/C=C/C=C/[C@H](O[C@@H]2O[C@H](C)[C@@H](O)[C@H](N)[C@@H]2O)C[C@@H]2O[C@](O)(C[C@@H](O)C[C@@H](O)CC[C@H](O)[C@@H](O)C[C@@H](O)CC(=O)O[C@H]1C)C[C@H](O)[C@H]2C(=O)O | CCC 115 | MIC100 |  |  | broth dilution / absorbance | 0.39 µg/mL
NC(=O)c1cc[n+](CCC[n+]2cccc(/C=N/O)c2)cc1.[Br-].[Br-] |  | EC50 |  |  | broth dilution | >20 µg/mL
Cc1ccc(-c2c3c(N)c4c(nc3nc3c2c(C)nn3-c2ccccc2)CCCC4)cc1 | CCC 115 | MIC50 |  |  | broth dilution / absorbance | >250 µg/mL
Clc1ccccc1C(c1ccccc1)(c1ccccc1)n1ccnc1 | 40 isolates | EC90 | pH 6 |  | broth dilution | 4 µg/mL
CC(C)CC(=O)C(=O)O | G 212 | MFC100 |  |  | broth dilution | >72000 µg/mL
O=C1C=CC(=O)N1CCN1CCOCC1 | DSM 11226 | MIC80 |  |  | broth dilution | 128 µg/mL
O=C1S/C(=C\c2ccc(Cl)cc2)C(=O)N1CC(O)(Cn1nccn1)c1ccc(F)cc1F |  | MIC80 |  |  |  | 4.19 µg/mL
O/N=C/c1cccc[n+]1Cc1csc2ccccc12.[Cl-] |  | EC50 |  |  | broth dilution | >20 µg/mL
O=C1C=CC(=O)N1c1ccc([N+](=O)[O-])cc1 | DSM 11226 | MIC80 |  |  | broth dilution | 2 µg/mL
OC(Cn1cncn1)(Cn1cncn1)c1ccc(F)cc1F |  | MIC80 |  |  |  | 0.29 µg/mL
COC(=O)[C@H]1[C@@H]2C[C@@H](O[C@@H]3O[C@H](C)[C@@H](O)[C@H](N)[C@@H]3O)/C=C/C=C/C=C/C=C/C=C/C=C/C=C/[C@H](C)[C@@H](O)[C@H](C)[C@H](C)OC(=O)C[C@H](O)C[C@H](O)[C@@H](O)CC[C@H](O)C[C@H](O)C[C@](O)(C[C@@H]1O)O2 | 40 isolates | EC90 | pH 7 |  | broth dilution | 0.25 µg/mL
C=CC(C)(C)c1cc(C2CC(=O)c3c(cc(O)c(CC=C(C)C)c3O)O2)c(O)cc1O | 35234 | zone |  | 2 mg/mL | agar diffusion / agar | 14 mm
CCOc1ccc2nc3cc(N=C4NC(=O)/C(=C\c5ccc([N+](=O)[O-])cc5)S4)ccc3c(N)c2c1 |  | MFC |  |  | broth dilution | >1000 µg/mL
O/N=C/c1cc[n+](Cc2ccc(C[n+]3ccc(/C=N/O)cc3)s2)cc1.[Cl-].[Cl-] |  | EC50 |  |  | broth dilution | >20 µg/mL
O=C1S/C(=C\c2ccoc2)C(=O)N1CC(O)(Cn1nccn1)c1ccc(F)cc1F |  | MIC80 |  |  |  | 0.29 µg/mL
NC(=O)N/N=C/c1ccsc1 | LMA 1085 | MIC80 |  |  | turbidity / absorbance | >250 µg/mL
O/N=C\c1cccs1 |  | MIC100 |  |  |  | 3930 µM
CCN1C(=O)C=CC1=O | DSM 11226 | MIC80 |  |  | broth dilution | 4 µg/mL
C[C@@H]1C(=O)N(CCCCc2ccccc2)C(=O)[C@@H]1C | CCC 115-2000 | MIC |  |  | broth dilution / turbidity | 62.5 µg/mL
Nc1ncccc1-c1cc(Cc2ccc(COc3ccccn3)cc2)no1 |  | MIC50 |  |  | broth dilution | 0.06 µg/mL
O=C1C=CC(=O)N1C1CCCCC1 | DSM 11226 | MIC80 |  |  | broth dilution | 1 µg/mL
C[C@@H](c1ncncc1F)[C@](O)(Cn1cncn1)c1ccc(F)cc1F | 8653 | MIC |  |  | broth dilution | 0.25 µg/mL
C[C@@H]1CC(=O)N(Cc2ccccc2)C1=O | CCC 115-2000 | MIC |  |  | broth dilution / turbidity | 62.5 µg/mL
Cc1ccc(-c2c3c(N)c4c(nc3nc3c2c(C)nn3-c2ccccc2)CCC4)cc1 | CCC 115 | MIC80 |  |  | broth dilution / absorbance | >250 µg/mL
COc1ccc(/C=N/O)cc1 |  | MIC100 |  |  |  | 6620 µM
NC(=O)c1cc[n+](Cc2ccc(C[n+]3ccc(C(N)=O)cc3)o2)cc1.[Br-].[Br-] |  | EC50 |  |  | broth dilution | >20 µg/mL
Nc1[nH]c(=O)ncc1F | 40 isolates | MIC | pH 4 |  | broth dilution | 0.125 µg/mL
CC1CC(=O)N(c2ccc(Cl)cc2)C1=O | CCC 115-2000 | MIC |  |  | broth dilution / turbidity | 250 µg/mL
O/N=C/c1ccc(O)cc1 |  | MIC100 |  |  |  | >7290 µM
O/N=C/c1cccc[n+]1Cc1ccc(C[n+]2ccccc2/C=N/O)s1.[Cl-].[Cl-] |  | EC50 |  |  | broth dilution | >20 µg/mL
CC1CC(=O)N(c2ccc(F)cc2F)C1=O | CCC 115-2000 | MIC |  |  | broth dilution / turbidity | 125 µg/mL
O=C1S/C(=C\c2ccc(F)cc2F)C(=O)N1CC(O)(Cn1nccn1)c1ccc(F)cc1F |  | MIC80 |  |  |  | 1.04 µg/mL
c1ccc(C(c2ccccc2)n2cncn2)cc1 |  | MFC |  |  | broth dilution | 256 µg/mL
CC1CC(=O)N(Cc2ccccc2)C1=O | CCC 115-2000 | MIC |  |  | broth dilution / turbidity | 125 µg/mL

The first 4 rows once more:

smiles	strain	read-out	conditions	tested at	method	result
NC(=O)N/N=C/c1ccsc1.NC(=O)N/N=C/c1ccsc1.[Br][Ni][Br]	LMA 1085	MIC80			turbidity / absorbance	125 µg/mL
c1ccc(C(c2ccccc2)n2cnc3ccccc32)cc1		MFC			broth dilution	>256 µg/mL
O=[N+]([O-])c1ccc(/C=N\O)cc1		MIC100				3010 µM
CC(C)CC(O)C(=O)O	G 212	EC50			broth dilution	18000 µg/mL